Compound potency records, mixed from different reports. Data source: NIAID ChemDB in PubChem.

Common to all: tests in culture; organism: Candida glabrata; read-out: MIC

Rows are shuffled and stem from different studies. Blank or dashed fields: not listed here.

structure	strain or isolate	conditions	method	value
CN(Cc1ccc(NS(=O)(=O)c2ccccc2)cc1)CC(O)(Cn1cncn1)c1ccc(F)cc1F	468		resazurin	1.4 µg/mL
CC[C@@H]([C@H](C)O)n1ncn(-c2ccc(N3CCN(c4ccc(OC[C@@H]5CO[C@@](Cn6cncn6)(c6ccc(F)cc6F)C5)cc4)CC3)cc2)c1=O	8655		broth dilution	1 µg/mL
C[C@@H]1C(=O)N(CCCc2ccccc2)C(=O)[C@@H]1C	CCC 115-2000		broth dilution / turbidity	62.5 µg/mL
CCCNS(=O)(=O)c1ccc(CN(C)CC(O)(Cn2cncn2)c2ccc(F)cc2F)cc1	468		resazurin	1.57 µg/mL
C[C@@H]1CC(=O)N(c2ccc([N+](=O)[O-])cc2)C1=O	CCC 115-2000		broth dilution / turbidity	125 µg/mL
Nc1[nH]c(=O)ncc1F	40 isolates	pH 6	broth dilution	0.125 µg/mL
CC(C)NS(=O)(=O)c1ccc(CN(C)CC(O)(Cn2cncn2)c2ccc(F)cc2F)cc1	468		resazurin	0.014 µg/mL
Nc1ncccc1-c1cc(Cc2ccc(COc3ccccn3)cc2)no1	8659		broth dilution	0.03 µg/mL
CC1CC(=O)N(c2ccc(Br)cc2)C1=O	CCC 115-2000		broth dilution / turbidity	125 µg/mL
C[C@@H](c1ncncc1F)[C@](O)(Cn1cncn1)c1ccc(F)cc1F	40 isolates	pH 4	broth dilution	8 µg/mL
CN(Cc1ccc(S(=O)(=O)Nc2ccc([N+](=O)[O-])cc2)cc1)CC(O)(Cn1cncn1)c1ccc(F)cc1F	468		resazurin	<0.001 µg/mL
COc1ccc(N2C(=O)CC(C)C2=O)cc1	CCC 115-2000		broth dilution / turbidity	125 µg/mL
CC[C@@H]([C@H](C)O)n1ncn(-c2ccc(N3CCN(c4ccc(OC[C@@H]5CO[C@@](Cn6cncn6)(c6ccc(F)cc6F)C5)cc4)CC3)cc2)c1=O	40 isolates	pH 6	broth dilution	2 µg/mL
C[C@@H]1CC(=O)N(CCc2ccccc2)C1=O	CCC 115-2000		broth dilution / turbidity	62.5 µg/mL
Clc1ccccc1C(c1ccccc1)(c1ccccc1)n1ccnc1	40 isolates	pH 7	broth dilution	0.125 µg/mL
CN(Cc1ccc(S(=O)(=O)N2CCOCC2)cc1)CC(O)(Cn1cncn1)c1ccc(F)cc1F	468		resazurin	0.021 µg/mL

For reference, 2 entries again:

structure,strain or isolate,conditions,method,value
CCCNS(=O)(=O)c1ccc(CN(C)CC(O)(Cn2cncn2)c2ccc(F)cc2F)cc1,468,,resazurin,1.57 µg/mL
Nc1ncccc1-c1cc(Cc2ccc(COc3ccccn3)cc2)no1,8659,,broth dilution,0.03 µg/mL